Measured values from several laboratories, pooled; numbers as filed in NIAID ChemDB.

All rows: growth or infection tests; organism: Herpes simplex virus 1; method: cytopathic effect; measure: EC50

Lines come from different laboratories, so protocols vary. An empty or dashed field is not shown. ECn is the concentration giving n% inhibition of infection, replication or growth. Two numbers with a dash give a range or band.

| structure | strain or isolate | cell line | value |
|---|---|---|---|
| C=CCc1nc(C)n2c(=O)[nH]c(=S)[nH]c12 | KOS | PRK | >40 µg/mL |
| Nc1nc2c(ncn2C=C2CC2CO)c(=O)[nH]1 | - | VERO | 10–100 µM |
| Nc1ncnc2c1ncn2[C@@H]1O[C@H](CO)[C@@H](O)[C@@H]1O | - | VERO | 10 µg/mL |
| C=Cc1cn([C@@H]2O[C@H](CO)[C@@H](O)[C@@H]2O)c(=S)nc1N | KOS (TK+) | RPMI8226 | >266.3 µM |
| CO[C@H](CO)[C@@H](O)CCn1ccc(N)nc1=O | VMW1837 (TK-) | E6SM | >400 µg/mL |
| CCCCCCCCCCc1nccn(CCCCO)c1=O | - | MRC-5 | >10 µM |
| Nc1ncc2ncn(C[C@@H](CF)OCP(=O)(O)O)c2n1 | KOS F McIntyre | E6SM | >600 µM |
| O=c1[nH]c(=S)n([C@@H]2O[C@H](CO)[C@@H](O)[C@@H]2O)cc1/C=C/c1ccccc1 | A4-3 (TK-) | RPMI8226 | >258.7 µM |
| O=c1[nH]c(=O)n([C@@H]2O[C@H](CO)[C@@H](O)[C@@H]2O)cc1/C=C/Br | B2006 (TK-) | PRK | >200 µg/mL |
| Cc1cn(CC[C@H](O)CCO)c(=O)[nH]c1=O | VMW1837 (TK-) | E6SM | >400 µg/mL |
| CC[C@]1(Br)C(=O)NC(=O)N([C@H]2C[C@H](O)[C@@H](CO)O2)[C@@H]1OC | E-377 | HFF | 0.29 µM |
| Cc1cn([C@@H]2O[C@H](CO)[C@](O)(C(F)(F)F)[C@H]2O)c(=O)[nH]c1=O | KOS | E6SM | 300 µg/mL |
| Nc1ncnc2c1ncn2/C=C1/CC1(CO)CO | - | HFF | >380 µM |
| C/C1=C\C=C\C2(C)C=C(CO)C(C)CC23OC([O-])C(C3=O)C(O)/C=C/C2(C)C=C(C=O)C(C)CC23OC([O-])C(C3=O)C(O)/C(C)=C/C=C/C2C=C(CO)C(C)CC23OC([O-])C(C3=O)C(O)/C=C/C2(C)C=C(C=O)C(C)CC23OC([O-])C(C3=O)C1O | KOS | VERO | 92 µg/mL |
| Cc1cc([C@H]2C[C@H](O)[C@@H](CO)O2)c(F)cc1F | KOS | E6SM | >400 µg/mL |
| CC(=O)OC(C)[C@H]1CCC2C3CC=C4C[C@@H](OC(C)=O)CC[C@]4(CO)C3CC[C@@]21C | KOS | BHK-21 | 19.6 µM |
| C/C1=C\C=C\C2(C)C=C(CO[C@H]3O[C@H](CO)[C@H](O)[C@H](O)[C@H]3O)C(C)CC23OC([O-])C(C3=O)C(O)/C=C/C2(C)C=C(CO)C(C)CC23OC([O-])C(C3=O)C(O)/C(C)=C/C=C/C2C=C(CO[C@H]3O[C@H](CO)[C@H](O)[C@H](O)[C@H]3O)C(C)CC23OC([O-])C(C3=O)C(O)/C=C/C2(C)C=C(C=O)C(C)CC23OC([O-])C(C3=O)C1O | KOS | VERO | 11 µg/mL |
| CC(=O)Nc1nc2c(CC(O)CO)nc(C)n2c(=O)[nH]1 | KOS | PRK | >400 µg/mL |
| OC[C@H]1O[C@@H](c2cc(F)c(F)cc2F)C[C@@H]1O | KOS/ACV-R | E6SM | >400 µg/mL |
| C=Cc1cn([C@H]2C[C@H](O)[C@@H](CO)O2)c(=S)[nH]c1=O | KOS (TK+) | RPMI8226 | 1.22 µM |
| C/C1=C\C=C\C2(C)C=C(CO)C(C)CC23OC([O-])C(C3=O)C(O)/C=C/C2(C)C=C(CO)C(C)CC23OC([O-])C(C3=O)C(O)/C(C)=C/C=C/C2C=C(CO)C(C)CC23OC([O-])C(C3=O)C(O)/C=C/C2(C)C=C(C=O)C(C)CC23OC([O-])C(C3=O)C1O | KOS | VERO | 35 µg/mL |
| CCc1cn([C@H]2C[C@H](O)[C@@H](CO)O2)c(=S)[nH]c1=O | KOS (TK+) | RPMI8226 | 0.32 µM |
| CC(=O)[C@H]1CCC2C3CC4CC[C@@]5(CCC(=O)C=C45)C3CC[C@@]21C | KOS | BHK-21 | 13.9 µM |
| C[C@H](Cn1cnc2c(=O)[nH]c(N)nc21)OCP(=O)(O)O | KOS F McIntyre | E6SM | 132 µM |
| Nc1nc2c(ncn2[C@H]2C=C[C@@H](CO)CC2)c(=O)[nH]1 | - | VERO | 0.1–1 µM |
| COC(=O)CC(SCCO)n1cc(C)c(=O)[nH]c1=O | - | HFF | >200 µM |
| Nc1nc2c(ncn2C[C@H](CO)OCP(=O)(O)O)c(=O)[nH]1 | KOS F McIntyre | E6SM | 0.1 µM |
| Nc1nc2c(ncn2[C@@H]2C=C[C@H](CO)CC2)c(=O)[nH]1 | - | VERO | 0.01–0.1 µM |
| Cc1cn([C@@H]2O[C@H](CO)[C@@H](O)[C@@H]2O)c(=S)nc1N | A4-3 (TK-) | RPMI8226 | >275.1 µM |
| OC[C@H]1O[C@@H](c2ccc(F)cc2F)C[C@@H]1O | KOS | E6SM | >400 µg/mL |
| Nc1nc(N)c2ncn(C[C@H](CF)OCP(=O)(O)O)c2n1 | KOS F McIntyre | E6SM | >600 µM |
| CCCCCCCCCCc1nccn(COCCO)c1=O | - | MRC-5 | >100 µM |
| Cc1nc(C(C)C)c2[nH]c(=S)[nH]c(=O)n12 | KOS | PRK | >200 µg/mL |
| CCO[C@@H]1[C@@H](OCC)[C@H](Cc2ccccc2)O[C@@H]2CO[C@@H](c3ccc(Cl)cc3)O[C@@H]12 | - | HFF | 3 µg/mL |
| CO[C@H](CO)[C@@H](O)CCn1cc(C)c(=O)[nH]c1=O | F | E6SM | >400 µg/mL |
| Nc1nc(Cl)c2ncn([C@@H](CCO)OCCO)c2n1 | - | HFF | >200 µM |
| OC[C@H]1O[C@H](c2cc(I)c(F)cc2F)C[C@@H]1O | F | E6SM | >400 µg/mL |
| O=C(O)/C=C/c1cn([C@@H]2O[C@H](CO)[C@@H](O)[C@@H]2O)c(=S)[nH]c1=O | A4-3 (TK-) | RPMI8226 | >238.4 µM |
| C[C@@]1(O)[C@@H](CO)O[C@@H](n2cnc3c(N)ncnc32)[C@@H]1O | KOS | E6SM | 10 µg/mL |
| Nc1ncnc2c1ncn2C[C@@H](CF)OCP(=O)(O)O | KOS F McIntyre | E6SM | 567 µM |
| O=c1[nH]c(=O)n([C@H]2C[C@H](O)[C@@H](CO)O2)cc1I | KOS | Primary rabbit kidney cells | 0.2 µg/mL |
| Cc1cn([C@H]2C[C@H](O)[C@@H](CO)O2)c(=S)[nH]c1=O | KOS (TK+) | RPMI8226 | 2.12 µM |
| CC(=O)OC(C)[C@H]1CCC2C3CC4[C@H](C)C[C@@]5(CC[C@H](OC(C)=O)C[C@]45Cl)C3CC[C@@]21C | KOS | BHK-21 | 27.4 µM |
| Cc1cn(C(CCN=[N+]=[N-])OCCO)c(=O)[nH]c1=O | - | HFF | >200 µM |
| O=C(CCC1CCCCC1)N(O)c1ccc(Cl)cc1 | KOS ACV-resistant TK- | E6SM | >16 µg/mL |
| CCCc1cn([C@H]2C[C@H](O)[C@@H](CO)O2)c(=O)[nH]c1=O | LYONS | Primary rabbit kidney cells | 10 µg/mL |
| Nc1nc2c(ncn2[C@@H]2C[C@H](CO)C[C@H]2O)c(=O)[nH]1 | 377 | VERO | 67–170 µg/mL |
| O=C(CC1CCCCC1)N(O)c1ccccc1 | KOS | E6SM | >80 µg/mL |

Repeating the final 6 entries:

structure	strain or isolate	cell line	value
CC(=O)OC(C)[C@H]1CCC2C3CC4[C@H](C)C[C@@]5(CC[C@H](OC(C)=O)C[C@]45Cl)C3CC[C@@]21C	KOS	BHK-21	27.4 µM
Cc1cn(C(CCN=[N+]=[N-])OCCO)c(=O)[nH]c1=O	-	HFF	>200 µM
O=C(CCC1CCCCC1)N(O)c1ccc(Cl)cc1	KOS ACV-resistant TK-	E6SM	>16 µg/mL
CCCc1cn([C@H]2C[C@H](O)[C@@H](CO)O2)c(=O)[nH]c1=O	LYONS	Primary rabbit kidney cells	10 µg/mL
Nc1nc2c(ncn2[C@@H]2C[C@H](CO)C[C@H]2O)c(=O)[nH]1	377	VERO	67–170 µg/mL
O=C(CC1CCCCC1)N(O)c1ccccc1	KOS	E6SM	>80 µg/mL